Results: patent US9642858B2, “Use of resazurin, or analogs thereof, for antibacterial therapy” (priority 2012, dated 2017)

System: F. tularensis LVS
Design: species or system Francisella tularensis

O=c1ccc2[n+]([O-])c3ccc(O)cc3oc-2c1 [resazurin, 7-Hydroxy-3H-phenoxazin-3-one 10-oxide]
increase of the ratio of resorufin to resazurin: 3 fold | maximum ratio of resorufin to resazurin: 5
